Compound potency records, mixed from different reports. Data source: NIAID ChemDB in PubChem.

Shared fields: tests in culture; agent: Mycobacterium tuberculosis

MIC bound comes from a single tested concentration. MIC50, MIC90 and the like: level of inhibition, or share of isolates inhibited. Inhibition is in % at the dose shown (toxicity tests: loss of growth or viability). ECn: concentration that inhibits the pathogen or its effect by n%. Blank or dashed fields: not listed here. Lines come from different laboratories, so protocols vary.

SMILES | dose | measure | strain | read by | value
CCC(=O)c1cc(N)c(OC)cc1OC.Cl |  | MIC | H37Rv |  | 50 µg/mL
CCOC(=O)C(=O)C(C(=O)c1ccccn1)c1nc2n(c1O)C(=N)N=N2 |  | MIC bound | H37Rv | resazurin | >6.25 µg/mL
CCOCCCNCCNCCC(c1ccccc1)c1ccccc1 |  | MIC |  |  | 25 µM
CCCCC(CC)CN1CN(CC(CC)CCCC)CC(C)(NCCN[C@H](CO)CCSC)C1 |  | MIC |  |  | 50 µM
Cc1cccc2ccc(-c3cccc(N(C)C)c3)nc12 |  | MIC | H37Rv |  | >100 µg/mL
O=c1c2ccccc2nnn1CCc1ccccc1 | 12.5 µg/mL | inhibition | H37Rv | BACTEC | 25%
O=C1OC(c2ccccc2)(c2ccccc2)C=C1c1ccccc1 |  | MIC | H37Rv |  | >100 µg/mL
COc1ccc(CNCCNCCCc2ccccc2)cc1OC |  | MIC |  |  | 50 µM
CC(C)c1ccc2c(c1)CC[C@H]1[C@](C)(CNCCNCc3ccccc3F)CCC[C@]21C |  | MIC |  |  | 12.5 µM
Cc1nc(-c2ccccc2O)[nH]c1C |  | MIC | H37Rv |  | >100 µg/mL
CCCCC(CC)CN1CN(CC(CC)CCCC)CC(C)(NCCNC2CCCCCCC2)C1 |  | MIC |  |  | 12.5 µM
CCc1ccc(C(=O)N/N=C(\C)[C@]2(O)Cc3c(O)c4c(c(O)c3[C@H](O[C@H]3C[C@H](N)[C@H](O)[C@H](C)O3)C2)C(=O)c2c(OC)cccc2C4=O)cc1 | 12.5 µg/mL | inhibition | H37Rv | BACTEC | 95%
NC[C@H]1O[C@H](O[C@H]2[C@H](O)[C@@H](O[C@H]3O[C@H](CO)[C@@H](O)[C@H](N)[C@H]3O)[C@H](N)C[C@@H]2N)[C@H](O)[C@@H](O)[C@@H]1O |  | MIC | TN3360 (W) |  | >256 µg/mL
Nc1nc2ccc(CN(C=O)c3ccc(C(=O)N[C@@H](CCC(=O)O)C(=O)O)cc3)cc2c(=O)[nH]1 |  | MIC bound | H37Rv | BACTEC | >12.5 µg/mL
CCOC(=O)Nc1cc(NCCc2ccc(S(N)(=O)=O)cc2)c(N)c(N)n1 | 12.5 µg/mL | inhibition | H37Rv |  | 0%
NC(Cc1ccc(O)cc1)C(=O)N/N=C/c1ccccc1O | 12.5 µg/mL | inhibition | H37Rv | BACTEC | -33%
CCOC(=O)Nc1cc(NC/C(=C\O)CN(C)c2ccccc2)c([N+](=O)[O-])c(N)n1 |  | EC50 | H37Rv |  | >12.5 µg/mL
CC1(C)NC(C(=O)O)Cc2c1[nH]c1ccccc21 |  | MIC bound | H37Rv | resazurin | >6.25 µg/mL
O=C(O)c1cc(Br)c(Br)c(Br)c1 |  | MIC | H37Rv |  | >100 µg/mL
CO[C@H]1/C=C/O[C@@]2(C)Oc3c(C)c(O)c4c(O)c(c(/C=N/N5CCN(C)CC5)c(O)c4c3C2=O)NC(=O)/C(C)=C\C=C\[C@H](C)[C@H](O)[C@@H](C)[C@@H](O)[C@@H](C)[C@H](OC(C)=O)[C@@H]1C |  | MIC | TN804 |  | >32 µg/mL
CSC(=S)N/N=C/c1cccc(C)n1 |  | MIC | H37Rv |  | >12.8 µg/mL
NCC[C@H](O)C(=O)N[C@@H]1C[C@H](N)[C@@H](O[C@H]2O[C@H](CN)[C@@H](O)[C@H](O)[C@H]2O)[C@H](O)[C@H]1O[C@H]1O[C@H](CO)[C@@H](O)[C@H](N)[C@H]1O |  | MIC | MDR12 | broth dilution / resazurin | 1 µg/mL
Cc1ccc2c(=O)n(-c3cccc(F)c3)c(=O)oc2c1 |  | MIC | CNCTC MY331/88 |  | 16 µM
NNC(=O)c1ccccc1SSc1ccccc1C(=O)NN | 12.5 µg/mL | inhibition | H37Rv | BACTEC | 83%
C1=C(CCNCCNCC23CC4CC(CC(C4)C2)C3)CCCC1 |  | MIC |  |  | 25 µM
COc1ccc(C2CC(=O)c3ccc(I)cc3O2)cc1 | 12.5 µg/mL | inhibition | H37Rv |  | 0%
NC1CCN(c2nc3c(cc2F)c(=O)c(C(=O)O)cn3-c2ccc(F)cc2F)C1 |  | MIC50 | MDR |  | >8 µg/mL
C=C(C)C1CC=C(C)/C(=N/NC(=O)c2cccnc2)C1 |  | MIC | PAS-R |  | 0.2 µg/mL
CCCCCCCCCCCNCCNC(C)CC |  | MIC |  |  | 25 µM
CC(C)c1ccc(C(=O)O)cc1 |  | MIC | H37Rv |  | >100 µg/mL
CCC[CH2][Sn]([Br])([I])[CH2]CCC.c1cnc2c(c1)ccc1cccnc12 | 12.5 µg/mL | inhibition | H37Rv | BACTEC | 99%
O=[As]([O-])(O)c1ccc(O)cc1O.[Na+] |  | MIC | H37Rv |  | >100 µg/mL
O=c1[nH]c(=O)c2nccnc2[nH]1 | 12.8 µg/mL | inhibition | H37Rv | BACTEC | -1%
O=C(O)c1cc(C(=O)O)c(C(=O)O)cc1C(=O)O |  | MIC | H37Rv |  | >100 µg/mL
CC(C)C[C@@H](CO)NCCNCCc1ccc(Cl)cc1Cl |  | MIC |  |  | 25 µM
O=C1c2ccccc2-c2ccc(Cl)c3cccc1c23 |  | MIC | H37Rv |  | 100 µg/mL
COc1ccc(/C=C/C(=O)c2ccccn2)cc1 |  | EC50 | H37Rv |  | >12.5 µg/mL
CCOC(=O)Nc1cc2[nH]c(-c3ccccc3)nc2c(Cl)n1 |  | EC50 | H37Rv |  | >12.5 µg/mL
COc1cc(C2SCC(=O)N2c2nnc(C(F)(F)F)s2)cc(OC)c1OC |  | MIC bound | H37Rv | BACTEC | >12.5 µg/mL
CCOC(=O)Nc1cc(NNC=O)c([N+](=O)[O-])c(N)n1 |  | EC50 | H37Rv |  | >12.5 µg/mL
C[C@H]1COc2c(N3CCN(C)CC3)c(F)cc3c(=O)c(C(=O)O)cn1c23 |  | MIC | ATCC 35820 |  | 0.25 µg/mL
N[C@@H](CSCSC[C@H](N)C(=O)O)C(=O)O |  | MIC bound | H37Rv | BACTEC | >12.5 µg/mL
COc1ccc2c(=O)n(-c3ccc(Br)cc3)c(=O)oc2c1 |  | MIC | CNCTC MY331/88 |  | 32 µM
C[C@H](NCCNCCCCc1ccccc1)C1CCCCC1 |  | MIC |  |  | 50 µM
O=C(/C=C/c1ccco1)c1ccc(Br)cc1O | 12.5 µg/mL | inhibition |  |  | 17%
CCOC(=O)CCCCCN.Cl |  | MIC | H37Rv |  | >100 µg/mL
CC1=NN(c2nc(N)nc(C/C(N)=N/O)n2)C(C)(C)C1 |  | MIC bound | H37Rv | resazurin | >6.25 µg/mL
C=CCN(CCNCCc1ccccc1Cl)C1CCCC1 |  | MIC |  |  | 12.5 µM
COc1ccc2c(c1)OC(c1ccc(Cl)cc1)CC2=O |  | EC50 | H37Rv |  | >12.5 µg/mL
CCOC(=O)Nc1cc(N)c([N+](=O)[O-])c(NC/C(C)=N/NC(N)=O)n1 | 12.5 µg/mL | inhibition | H37Rv |  | 0%
Nc1ccccc1OCCOCCOCCO |  | MIC | H37Rv |  | 100 µg/mL
COc1cc(C2c3cc4c(c(OC(=O)c5ccccn5)c3CC3COC(=O)C32)OCO4)cc(OC)c1OC | 12.5 µg/mL | inhibition | H37Rv | BACTEC | 0%
CCOC(=O)c1ccc(-n2c(=O)oc3ccc(F)cc3c2=O)cc1 |  | MIC | CNCTC MY331/88 |  | 8 µM
S=C(NCCNC(=S)SSC(=S)NNc1ccccc1)SSC(=S)NNc1ccccc1 |  | MIC bound | H37Rv | BACTEC | ≤128 µg/mL
COc1ccc(CNCCNCCc2ccc(Cl)cc2Cl)c(OC)c1 |  | MIC |  |  | 50 µM
CO[C@H]1/C=C/O[C@@]2(C)Oc3c(C)c(O)c4c(=O)c(c5oc6cc(N7CCN(C(C)C)CC7)cc(=O)c6nc5c4c3=C2O)NC(=O)/C(C)=C\C=C\[C@H](C)[C@H](O)[C@@H](C)[C@@H](O)[C@@H](C)[C@H](OC(C)=O)[C@@H]1C |  | MIC | 27 (rifampin-resistant) |  | 0.1 µg/mL
Cc1cc(NC(=S)SCc2ccc(Cl)cc2)ccc1Cl |  | MIC bound | H37Rv | BACTEC | >12.5 µg/mL
CC[C@H]1OC(=O)[C@H](C)[C@@H](O[C@H]2C[C@@](C)(OC)[C@@H](O)[C@H](C)O2)[C@H](C)[C@@H](O[C@@H]2O[C@H](C)C[C@H](N(C)C)[C@H]2O)[C@](C)(O)C[C@@H](C)C(=O)[C@H](C)[C@@H](O)[C@]1(C)O |  | MIC50 | MDR |  | >8 µg/mL
O=C1CC(c2ccccc2)Oc2ccc(Br)cc21 | 12.5 µg/mL | inhibition | H37Rv |  | 8%
CCCCC(CC)CN1CN(CC(CC)CCCC)CC(C)(NCCNCCF)C1 |  | MIC |  |  | 12.5 µM
CC(=O)N1CCN(C23OC4(N5CCN(C(C)=O)CC5)C5C6CC(C7C6C4C72)C53)CC1 | 6.25 µg/mL | inhibition | H37Rv | resazurin | -7%
OCc1ccc(I)cc1 |  | MIC | H37Rv |  | 50 µg/mL
COc1ccc(/C=N/NC(=O)CNC(=O)n2ccnc2)cc1 |  | MIC bound | H37Rv | BACTEC | >12.5 µg/mL
Nc1ccc(-c2nc3ccccc3[nH]2)cc1 |  | MIC | H37Rv |  | >100 µg/mL
CCOC(=O)Nc1cc(NC(C)C(O)Cc2ccccc2)c([N+](=O)[O-])c(N)n1 |  | EC50 | H37Rv |  | <12.5 µg/mL
O=C1C=CC(=O)C=C1 |  | MIC | H37Rv |  | >100 µg/mL
CCCCCNCCNCc1ccc(OC)cc1OC |  | MIC |  |  | 25 µM
C=C(O)Oc1cc(OC(C)=O)ccc1OC(C)=O |  | MIC | H37Rv |  | 100 µg/mL
O=C(/C=C/c1cccc(I)c1)c1ccccc1O |  | EC50 | H37Rv |  | <12.5 µg/mL
COc1ccc2nc(N3CCOCC3)ccc2c1 |  | MIC | H37Rv |  | >100 µg/mL
Clc1ccc(CCNCCNCc2ccc3c(c2)OCO3)c(Cl)c1 |  | MIC |  |  | 50 µM
CC(CNC[C@@H]1CC[C@H]2C[C@@H]1C2(C)C)N[C@H]1C[C@H]2CC[C@]1(C)C2(C)C |  | MIC |  |  | 50 µM
O=c1oc2ccc(Br)cc2c(=O)n1-c1cccc(Cl)c1 |  | MIC | CNCTC MY331/88 |  | 4 µM
CNc1cccc2c1C(=O)c1ccccc1C2=O |  | MIC | H37Rv |  | >100 µg/mL
COc1cc(-c2oc3c(OC)c(OC)cc(O)c3c(=O)c2OC)ccc1O |  | MIC bound | H37Rv | BACTEC | >12.5 µg/mL
CCC1=CC(CC)C2C(=O)N(c3ccc(C)cc3)C1C2C(=O)O |  | MIC | H37Rv |  | 100 µg/mL
CO[C@H]1/C=C/O[C@@]2(C)Oc3c(C)c(O)c4c(O)c(c(/C=N/N5CCN(C/C=C/c6ccccc6)CC5)c(O)c4c3C2=O)NC(=O)/C(C)=C\C=C\[C@H](C)[C@H](O)[C@@H](C)[C@@H](O)[C@@H](C)[C@H](OC(C)=O)[C@@H]1C |  | MBC | 3113 (rifampin-sensitive) |  | 0.1 µg/mL
CC1COc2c(N3CCN(C)CC3)c(F)cc3c(=O)c(C(=O)O)cn1c23 |  | MIC90 | MDR |  | 8 µg/mL
COc1cccc2c1sc1ccccc12 |  | MIC | H37Rv |  | >100 µg/mL

A second listing of 11 rows from above:

{"SMILES": "O=C1CC(c2ccccc2)Oc2ccc(Br)cc21", "dose": "12.5 µg/mL", "measure": "inhibition", "strain": "H37Rv", "value": "8%"}
{"SMILES": "CCOCCCNCCNCCC(c1ccccc1)c1ccccc1", "measure": "MIC", "value": "25 µM"}
{"SMILES": "CC1=NN(c2nc(N)nc(C/C(N)=N/O)n2)C(C)(C)C1", "measure": "MIC bound", "strain": "H37Rv", "read by": "resazurin", "value": ">6.25 µg/mL"}
{"SMILES": "Cc1ccc2c(=O)n(-c3cccc(F)c3)c(=O)oc2c1", "measure": "MIC", "strain": "CNCTC MY331/88", "value": "16 µM"}
{"SMILES": "CCCCC(CC)CN1CN(CC(CC)CCCC)CC(C)(NCCN[C@H](CO)CCSC)C1", "measure": "MIC", "value": "50 µM"}
{"SMILES": "C=CCN(CCNCCc1ccccc1Cl)C1CCCC1", "measure": "MIC", "value": "12.5 µM"}
{"SMILES": "NC[C@H]1O[C@H](O[C@H]2[C@H](O)[C@@H](O[C@H]3O[C@H](CO)[C@@H](O)[C@H](N)[C@H]3O)[C@H](N)C[C@@H]2N)[C@H](O)[C@@H](O)[C@@H]1O", "measure": "MIC", "strain": "TN3360 (W)", "value": ">256 µg/mL"}
{"SMILES": "CCOC(=O)Nc1cc2[nH]c(-c3ccccc3)nc2c(Cl)n1", "measure": "EC50", "strain": "H37Rv", "value": ">12.5 µg/mL"}
{"SMILES": "CCCCC(CC)CN1CN(CC(CC)CCCC)CC(C)(NCCNC2CCCCCCC2)C1", "measure": "MIC", "value": "12.5 µM"}
{"SMILES": "CC[C@H]1OC(=O)[C@H](C)[C@@H](O[C@H]2C[C@@](C)(OC)[C@@H](O)[C@H](C)O2)[C@H](C)[C@@H](O[C@@H]2O[C@H](C)C[C@H](N(C)C)[C@H]2O)[C@](C)(O)C[C@@H](C)C(=O)[C@H](C)[C@@H](O)[C@]1(C)O", "measure": "MIC50", "strain": "MDR", "value": ">8 µg/mL"}
{"SMILES": "C1=C(CCNCCNCC23CC4CC(CC(C4)C2)C3)CCCC1", "measure": "MIC", "value": "25 µM"}